Among the data in US20190167593A1, “CYCLOHEXENE DERIVATIVE OR PHARMACEUTICALLY ACCEPTABLE SALT THEREOF, AND APPLICATION OF SAME” (priority 2016, published 2019) are IC50 values, retold here.

Protein sequences, listed by entry. Tags and fused reporters are not part of them.
UniProt P03468, whole entry, looked up: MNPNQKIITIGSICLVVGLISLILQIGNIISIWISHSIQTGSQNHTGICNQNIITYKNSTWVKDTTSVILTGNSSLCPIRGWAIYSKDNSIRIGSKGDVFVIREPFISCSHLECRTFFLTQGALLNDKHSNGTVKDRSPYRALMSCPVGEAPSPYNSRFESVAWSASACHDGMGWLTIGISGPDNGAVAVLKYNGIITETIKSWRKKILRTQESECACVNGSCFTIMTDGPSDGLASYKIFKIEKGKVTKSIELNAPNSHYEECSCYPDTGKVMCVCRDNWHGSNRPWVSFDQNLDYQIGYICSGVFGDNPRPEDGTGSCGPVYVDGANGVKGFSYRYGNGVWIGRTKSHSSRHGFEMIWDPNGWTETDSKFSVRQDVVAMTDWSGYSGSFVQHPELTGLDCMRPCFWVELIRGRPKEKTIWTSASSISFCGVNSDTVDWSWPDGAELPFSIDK

The assay has as its target influenza virus neuraminidase (NA), wild-type (Influenza A virus, UniProt P03468). It counts as biochemical. Particulars: read-out: WIDE-TYPE IC50.

Take Peramivir: the IC50 is 0.0984 nM.
